Pooled drug test results. Numbers come from NIAID ChemDB, via PubChem.

All rows: growth or infection tests; agent: Candida albicans

Lines come from different laboratories, so protocols vary. ECn: concentration that inhibits the pathogen or its effect by n%. An empty or dashed field is not shown. A number after MIC or MFC names an inhibition level or a share of isolates.

O=[N+]([O-])c1ccc(/C=C\C2=NCCS2)cc1 ; endpoint: MIC ; value: 42 µg/mL
COc1cc(C(=O)Nc2ccc(Cn3ccnc3)cc2)cc(OC)c1OC ; strain: 27 strains ; endpoint: Mean MIC ; value: 200 µg/mL
OC(CN=C1CCN(CCCCOc2ccccc2)CC1)(Cn1cncn1)c1ccc(F)cc1F ; endpoint: MIC80 ; value: >132 µM
CC(=O)N1N=C(c2ccc(C)cc2)CC1c1nnc2c3ccccc3c(=O)[nH]n12 ; endpoint: MIC ; value: 100 µg/mL
O=C(Nc1ccc(Cc2nc3ccccc3s2)cc1)c1ccc(Br)cc1 ; strain: ATCC 10231 ; endpoint: MIC100 ; method: broth dilution ; value: 25 µg/mL
O=C(Nc1ccc(Cn2ccnc2)cc1)c1ccccc1 ; strain: 27 strains ; endpoint: Mean MIC ; value: 109 µg/mL
Cn1c(=O)c(-c2[nH][nH]c(=O)c2/C=N/c2cscn2)c(O)c2ccccc21 ; strain: ATCC 10231 ; endpoint: MIC ; value: 50 µg/mL
O[C@](Cn1cncn1)(Cn1cnc(/C=C/c2ccc(OCC(F)(F)C(F)F)cc2)n1)c1ccc(F)cc1F ; strain: 119 isolates ; endpoint: MIC50 ; value: 0.015 µg/mL
CCS(=O)(=O)C(F)(F)C(O)(Cn1cncn1)c1ccc(F)cc1F ; strain: 6 strains (fluconazole-resistant) ; endpoint: MIC90 ; value: >16 µg/mL
Cn1c(=O)c(-c2[nH][nH]c(=O)c2N=Nc2ccc(N)cc2)c(O)c2ccccc21 ; strain: ATCC 10231 ; endpoint: MIC ; value: 50 µg/mL
OC(CN1CCCN(CCCCCOc2ccccc2)C1)(Cn1cncn1)c1ccc(F)cc1F ; endpoint: MIC80 ; value: 2.06 µM
N=C(N)c1ccc2nc(-c3ccc(-c4nc5ccc(C(=N)N)cc5[nH]4)[nH]3)[nH]c2c1 ; strain: Isolate CA783 ; endpoint: MFC ; value: 0.78 µg/mL
N#C/C=C1\NC(c2ccccc2)=CC(c2nnc3c4ccccc4c(=O)[nH]n23)=C1C#N ; endpoint: MIC ; value: >200 µg/mL
O=C(Cc1ccc(F)cc1)Nc1ccc(Cc2nc3ccccc3s2)cc1 ; strain: ATCC 10231 ; endpoint: MIC100 ; method: broth dilution ; value: 50 µg/mL
C=C1C2CC[C@H](C=O)C(O)(C=O)[C@@]2(C)CC[C@@H]1C ; strain: B311 ; endpoint: MIC ; value: 0.39 µg/mL
CCC(C)n1ncn(-c2ccc(N3CCN(c4ccc(OC[C@H]5CO[C@](Cn6cncn6)(c6ccc(Cl)cc6Cl)O5)cc4)CC3)cc2)c1=O ; strain: ATCC 10231 ; endpoint: MIC50 ; value: 5 µg/mL
O=[N+]([O-])/C(Br)=C\c1ccc(Br)o1 ; strain: 138 isolates ; endpoint: MIC90 ; value: 2 µg/mL
CN1C(=O)/C(=c2/[nH][nH]c(=O)/c2=C\c2ccc(Cl)cc2)C(=O)c2ccccc21 ; strain: ATCC 10231 ; endpoint: MIC ; value: >100 µg/mL
C=CCN(CC=C)c1nnc2c(cnc3ccccc32)n1 ; strain: M-3 ; endpoint: MIC ; value: 50 µg/mL
C[C@@H]1CC[C@H](O)[C@@](C)(O)[C@@]1(C)CCc1ccc2c(c1)C(=O)C=CC2=O ; endpoint: MIC ; value: 6 µg/mL
COc1nnc2c(cnc3ccccc32)n1 ; strain: VM-71 ; endpoint: MIC ; value: 40 µg/mL
Clc1ccc(/C=C\C2=NCCS2)c(Cl)c1 ; endpoint: MIC ; value: 5 µg/mL
NS(=O)(=O)c1ccc(N2N=C(c3ccccc3)CC2c2nnc3c4ccccc4c(=O)[nH]n23)cc1 ; endpoint: MIC ; value: 100 µg/mL
C[C@H]1[C@H](O)[C@@H](C)/C=C/C=C/C=C/C=C/C=C/C=C/C=C/[C@H](O[C@@H]2O[C@H](C)[C@@H](O)[C@H](N)[C@@H]2O)C[C@@H]2O[C@](O)(C[C@@H](O)C[C@@H](O)CC[C@H](O)[C@@H](O)C[C@@H](O)CC(=O)O[C@H]1C)C[C@H](O)[C@H]2C(=O)O ; strain: ATCC 10231 ; endpoint: MIC ; value: 10 µg/mL
Cn1c(=O)c(-c2[nH][nH]c(=O)c2/C=N/c2ncccn2)c(O)c2ccccc21 ; strain: ATCC 10231 ; endpoint: MIC ; value: >100 µg/mL
C=C1[C@@H](C)CC[C@@]2(C)[C@H]1CC=C1COC(=O)[C@@]12O ; strain: B311 ; endpoint: MIC ; value: 50 µg/mL
OC(CN=C1CCN(CCCCCOc2ccccc2)CC1)(Cn1cncn1)c1ccc(F)cc1F ; endpoint: MIC80 ; value: >129 µM
O=C(Nc1nc2ccc(NC(=O)[C@@H]3CCC[C@H](NCc4ccc5ccccc5c4)C3)cc2s1)C1CCCC1 ; strain: IFM 47598 (Darlington) ; endpoint: MIC ; value: 3.13 µM
COc1ccc(/C=c2\c(=O)[nH][nH]\c2=C2/C(=O)c3ccccc3N(C)C2=O)cc1OC ; strain: ATCC 10231 ; endpoint: MIC ; value: 50 µg/mL
C=C1C(=O)OC2C3C4(OC4[C@H](O)[C@@]3(C)O)[C@@H](C)C[C@@H](O)[C@@H]12 ; endpoint: MIC ; value: 20 µg/mL
Cn1c(=O)c(-c2[nH][nH]c(=O)c2C=Nc2cccnc2)c(O)c2ccccc21 ; strain: ATCC 10231 ; endpoint: MIC ; value: 25 µg/mL
Cc1ccc(NC2N3N=C(c4ccc(C)cc4)CC3=C3N4NC(=O)c5ccccc5C4=NN32)cc1 ; endpoint: MIC ; value: >200 µg/mL
Cc1ccccc1N1C(=O)C(Cl)C12C(=O)Nc1c(Br)cc(Br)cc12 ; strain: MTCC 183 ; endpoint: MIC100 ; value: 19 µg/mL
O=C(Nc1ccc(Cn2ccnc2)cc1)c1ccc(Br)cc1 ; strain: 27 strains ; endpoint: Mean MIC ; value: 144 µg/mL
OC(CN1CCCN(CCCOc2ccccc2)C1)(Cn1cncn1)c1ccc(F)cc1F ; endpoint: MIC80 ; value: 2.19 µM
CC(=O)N1N=C(c2ccccc2)CC1c1nnc2c3ccccc3c(=O)[nH]n12 ; endpoint: MIC ; value: 50 µg/mL
O=C(Cc1ccccc1)Nc1ccc(-c2nc3ccccc3s2)cc1 ; strain: ATCC 10231 ; endpoint: MIC100 ; method: broth dilution ; value: 25 µg/mL
O=C1C(Cl)C2(C(=O)Nc3c(Br)cc(Br)cc32)N1c1ccccc1[N+](=O)[O-] ; strain: MTCC 183 ; endpoint: MIC100 ; value: 19 µg/mL
C(=C/c1ccncc1)/C1=NCCS1 ; endpoint: MIC ; value: 12 µg/mL
O=C(Nc1cccc(Cn2ccnc2)c1)c1ccc([N+](=O)[O-])cc1[N+](=O)[O-] ; strain: 27 strains ; endpoint: Mean MIC ; value: 145 µg/mL
C[C@@H](c1ncncc1F)[C@](O)(Cn1cncn1)c1ccc(F)cc1F ; endpoint: MIC80 ; value: 0.04 µM
CN1C(=O)/C(=c2/[nH][nH]c(=O)/c2=C\c2ccc3c(c2)OCO3)C(=O)c2ccccc21 ; strain: ATCC 10231 ; endpoint: MIC ; value: 50 µg/mL
O=[N+]([O-])c1cccc(Cn2ccnc2)c1 ; strain: 27 strains ; endpoint: Mean MIC ; value: 96.42 µg/mL
CN=[N+]([O-])CC[C@H](N)C(=O)O ; strain: KB (azole-resistant) ; endpoint: MIC80 ; value: 17 µg/mL
CC1=C(CCO)C(=O)C(O)=C2C1=CC(=O)[C@@H]1C(C)(C)CCC[C@@]21C ; endpoint: EC50 ; cells: VERO ; value: 0.12 µg/mL
Cc1ccc(N=Nc2c(-c3c(O)c4ccccc4n(C)c3=O)[nH][nH]c2=O)cc1 ; strain: ATCC 10231 ; endpoint: MIC ; value: >100 µg/mL
CC(C)(C)c1ccc(C(=O)Nc2ccc(Cc3nc4ccccc4s3)cc2)cc1 ; strain: ATCC 10231 ; endpoint: MIC100 ; method: broth dilution ; value: 25 µg/mL
Clc1ccccc1C(c1ccccc1)(c1ccccc1)n1ccnc1 ; strain: ATCC 10231 ; endpoint: MFC ; value: 10 µg/mL
O=c1occ(/C=C\C2=NCCS2)c2ccccc12 ; endpoint: MIC ; value: 88 µg/mL
Cc1ccc(C(=O)CC(SCC(=O)O)c2nnc3c4ccccc4c(=O)[nH]n23)cc1 ; endpoint: MIC ; value: >200 µg/mL
O=C1C(Cl)C2(C(=O)Nc3c(Br)cc(Br)cc32)N1c1ccc([N+](=O)[O-])cc1 ; strain: MTCC 183 ; endpoint: MIC100 ; value: 26 µg/mL
c1ccc2c(CC3=NCCS3)cccc2c1 ; endpoint: MIC ; value: 46 µg/mL
Cc1ccc(N2C(=O)C(Cl)C23C(=O)Nc2c(Br)cc(Br)cc23)cc1 ; strain: MTCC 183 ; endpoint: MIC100 ; value: 16 µg/mL
O=C1NN2C(=NN3C2=C2CC(c4ccccc4)=NN2C3Nc2ccccc2)c2ccccc21 ; endpoint: MIC ; value: 50 µg/mL
O=C(Nc1ccc(Cn2ccnc2)cc1)c1cccc([N+](=O)[O-])c1 ; strain: 27 strains ; endpoint: Mean MIC ; value: 91.96 µg/mL
O=C1C(Cl)C2(C(=O)Nc3ccccc32)N1c1ccc([N+](=O)[O-])cc1 ; strain: MTCC 183 ; endpoint: MIC100 ; value: 25 µg/mL

A second listing of 4 rows from above:

SMILES | strain | endpoint | method | cells | value
O=C(Nc1ccc(Cn2ccnc2)cc1)c1ccccc1 | 27 strains | Mean MIC | - | - | 109 µg/mL
Cc1ccc(N2C(=O)C(Cl)C23C(=O)Nc2c(Br)cc(Br)cc23)cc1 | MTCC 183 | MIC100 | - | - | 16 µg/mL
N=C(N)c1ccc2nc(-c3ccc(-c4nc5ccc(C(=N)N)cc5[nH]4)[nH]3)[nH]c2c1 | Isolate CA783 | MFC | - | - | 0.78 µg/mL
Cc1ccccc1N1C(=O)C(Cl)C12C(=O)Nc1c(Br)cc(Br)cc12 | MTCC 183 | MIC100 | - | - | 19 µg/mL